A mixed list of measured activities; the numbers were collected in NIAID ChemDB.

Shared fields: whole-cell or culture tests; agent: HIV-1; read by: cytopathic effect; read-out: EC50

ECn is the concentration giving n% inhibition of infection, replication or growth. Rows are shuffled and stem from different studies. An empty or dashed field is not shown.

compound | changes | cell line | strain or isolate | result
CC(C)Nc1cccnc1N1CCN(C(=O)c2cc3cc(NS(C)(=O)=O)ccc3[nH]2)CC1 | RT-Y181C | CEM | IIIB | 0.25 µg/mL
Fc1cccc(F)c1C1SCc2nc3ccccc3n21 | RT-L100I | CEM | - | 3.12 µM
CNC(=O)[C@H](Cc1ccc(O)cc1)NC(=O)[C@H](OCc1ccccc1)[C@H](O)[C@@H](O)[C@@H](OCc1ccccc1)C(=O)N[C@@H](Cc1ccc(O)cc1)C(=O)NC | - | MT-4 | - | >67 µM
Cc1cn([C@H]2C[C@H](N=[N+]=[N-])[C@@H](CO)O2)c(=O)[nH]c1=O | RT-Y181C | CEM | - | 0.019 µM
Cc1cn([C@H]2C[C@H](N=[N+]=[N-])[C@@H](CO)O2)c(=O)[nH]c1=O | RT-V106A | CEM | E-2 (RT-V106A) | 0.0053 µM
Cc1ccnc(N2C(=O)CSC2c2c(Cl)cccc2Cl)n1 | RT-Y181C | CEM | - | 4.41 µM
Cc1occc1C(=S)Nc1ccc(Cl)c(/C=N/OC(C)(C)C)c1 | - | CEM | - | 0.02 µg/mL
CC(C)=CCOc1cc(NC(=S)c2ccoc2C)ccc1Cl | RT-K101E | CEM | C-1 (RT-K101E) | 0.0073 µg/mL
Nc1ccn([C@H]2CC[C@@H](CO)O2)c(=O)n1 | RT-K70R | MT-4 | DI-06.92 (HXB2 RT-K70R) | 1.4 µM
O=C(NCc1ccccc1)[C@H](OCc1ccccc1)[C@H](O)[C@@H](O)[C@@H](OCc1ccccc1)C(=O)N[C@H]1c2ccccc2C[C@H]1O | - | MT-4 | - | 2.59 µM
O=c1[nH]cnc2c1ncn2[C@H]1CC[C@@H](CO)O1 | RT-T69N K70R Q151M | MT-4 | NI-10.93 (HXB2 RT T69N K70R Q151M) | >100 µM
O=S1(=O)N(Cc2ccc(CO)cc2)[C@H](COc2ccccc2)[C@H](O)[C@@H](O)[C@@H](COc2ccccc2)N1Cc1ccc(CO)cc1 | - | MT-4 | - | 1.55 µM
Cc1ccnc2c1NC(=O)c1cccnc1N2C1CC1 | RT-T139K Y181C Y188D/Y | CEM | Q-1 (RT T139K Y181C Y188D/Y) | ≥4 µg/mL
CC(C)=CCN1Cc2cc(Cl)cc3[nH]c(=S)n(c23)C[C@@H]1C | RT-L100I | CEM | IIIB | 1.75 µg/mL
CNC(=O)[C@@H](NC(=O)[C@H](OCc1ccc(CCc2ccccc2)cc1)[C@H](O)[C@@H](O)[C@@H](OCc1ccc(CCc2ccccc2)cc1)C(=O)N[C@H](C(=O)NC)C(C)C)C(C)C | - | MT-4 | - | 2.05 µM
CC(C)=CCOc1cc(NC(=S)c2ccsc2C)ccc1Cl | - | CEM | IIIB | 0.003 µg/mL
CC(C)Nc1cccnc1N1CCN(C(=O)c2cc3cc(NS(C)(=O)=O)ccc3[nH]2)CC1 | RT-T69N K70R Q151M | MT-4 | NI-10.93 (HXB2 RT T69N K70R Q151M) | 0.04 µM
COc1cc(C)nc(N2C(=O)CSC2c2c(Cl)cccc2Cl)n1 | - | CEM | IIIB | 0.041 µM

Repeating the final 2 entries:

| compound | changes | cell line | strain or isolate | result |
|---|---|---|---|---|
| CC(C)Nc1cccnc1N1CCN(C(=O)c2cc3cc(NS(C)(=O)=O)ccc3[nH]2)CC1 | RT-T69N K70R Q151M | MT-4 | NI-10.93 (HXB2 RT T69N K70R Q151M) | 0.04 µM |
| COc1cc(C)nc(N2C(=O)CSC2c2c(Cl)cccc2Cl)n1 | - | CEM | IIIB | 0.041 µM |